The subject of this series is CYP1A1/2. The series is described as follows: Induction of CYP1A1/2 enzymes in minipig assessed as increase in EROD enzyme activity at 500 mg/kg/day, po for 39 weeks relative to control. Particulars: pig, in vivo, read-out: FC. The format is ADME, organism-based, Sus scrofa domesticus.

`CCS(=O)(=O)c1ccc2oc(-c3ccc4ccccc4c3)nc2c1` [EZUTROMID]: the fold induction at 6552 h amounted to 2.1.

(Values after ChEMBL document CHEMBL4376826, “Isolation, Structural Identification, Synthesis, and Pharmacological Profiling of 1,2-trans-Dihydro-1,2-diol Metabolites of the Utrophin Modulator Ezutromid” (J Med Chem, 2020).)
